Pooled drug test results. Numbers come from NIAID ChemDB, via PubChem.

All rows: tests in culture

ECn is the concentration giving n% inhibition of infection, replication or growth.

| compound | tested at | strain | endpoint | agent | cell line | method | value |
|---|---|---|---|---|---|---|---|
| C[C@H]1O[C@@H](n2ccc(NC(=O)c3ccc(NC(=O)[C@@](C)(N)CO)cc3)nc2=O)C[C@@H](O)[C@@H]1O[C@H]1O[C@H](C)[C@@H](N(C)C)[C@H](O)[C@H]1O |  | KOS | EC50 | Herpes simplex virus 1 | HeLa | cytopathic effect | >500 µg/mL |
| O=C(NCc1ccc(Cl)cc1)c1n[nH]c2ccccc2c1=O |  |  | EC50 | Herpes simplex virus |  |  | 1.7 µM |
| O=C(O)P(=O)(O)O |  | PFA-resistant-5 | EC90 | Herpes simplex virus 1 | HeLa | virus yield | 830 µM |
| CCCCCCCCCCCC(=O)OC[C@@H](O)COP(=O)([O-])OCC[N+](C)(C)C |  | KOS | EC50 | Herpes simplex virus 1 | HeLa | cytopathic effect | >200 µg/mL |
| O=C(O)P(=O)(O)O | 500 µM | V12500 | inhibition | Herpes simplex virus 2 | SIRC | plaque count | >99.9% |
| CCC#Cc1ccc2c(c1)c(=O)c(C(=O)NCc1ccc(Cl)cc1)nn2C |  |  | EC50 | Herpes simplex virus |  |  | <20 µM |
| Cc1cc2c(C(C)C)c(O)c(O)c(C=O)c2c(O)c1-c1c(C)cc2c(C(C)C)c(O)c(O)c(C=O)c2c1O |  | KOS | EC50 | Herpes simplex virus 1 | HeLa | cytopathic effect | >100 µM |
| Nc1ncnc2c1ncn2CCOCP(=O)(O)O |  | KOS HPMPA-resistant | EC50 | Herpes simplex virus 1 | HEL | cytopathic effect | 9.9 µg/mL |
| NC[C@@H]1O[C@H](O[C@H]2[C@@H](O)[C@H](O[C@@H]3[C@@H](O)[C@H](N)C[C@H](N)[C@H]3O[C@H]3O[C@H](CO)[C@@H](O)C[C@H]3N)O[C@@H]2CO)[C@H](N)[C@@H](O)[C@@H]1O[C@H]1O[C@H](CO)[C@@H](O)[C@H](O)[C@@H]1O |  | KOS | EC50 | Herpes simplex virus 1 | HeLa | cytopathic effect | >200 µg/mL |
| O=C(OCc1ccccc1)P(=O)(O)OC[C@H]1O[C@@H](n2cc(CCCl)c(=O)[nH]c2=O)C[C@@H]1O | 205 µM | TK- | inhibition | Herpes simplex virus 2 | VERO | cytopathic effect | >25% |
| CC(=O)N[C@H](C(=O)N[C@H](C(=O)N1CCC[C@H]1C(=O)NC1(C(=O)O)CC1)C(C)C)C1CCCCC1 |  | KOS | EC50 | Herpes simplex virus 1 | HeLa | cytopathic effect | >100 µg/mL |
| CCOC(=O)CP(=O)(OC)OC[C@H]1O[C@@H](n2cc(I)c(=O)[nH]c2=O)C[C@@H]1O | 57.9 µM | K979 | inhibition | Herpes simplex virus 2 | VERO | cytopathic effect | >25% |
| Nc1ncnc2c1ncn2[C@@H]1O[C@H](CO)[C@@H](O)[C@@H]1O |  | KOS GCV-resistant | EC50 | Herpes simplex virus 1 | HEL | cytopathic effect | 15 µg/mL |
| O=C(CP(=O)(O)O)O[C@H]1C[C@H](n2cc(CCCl)c(=O)[nH]c2=O)O[C@@H]1CO | 242 µM | K979 | inhibition | Herpes simplex virus 2 | VERO | cytopathic effect | >25% |
| Nc1nc(N)c2ncn(CCOCP(=O)(O)O)c2n1 |  | KOS S2242-resistant | EC50 | Herpes simplex virus 1 | HEL | cytopathic effect | 27.6 µg/mL |
| Nc1ncnc2c1ncn2[C@@H]1O[C@H](COP(=O)(O)OS(=O)(=O)O)[C@@H](O)[C@H]1O |  | KOS | EC50 | Herpes simplex virus 1 | HeLa | cytopathic effect | >1000 µM |
| CCOC(=O)P(=O)(OCCOCn1cnc2c(=O)[nH]c(N)nc21)OC(C)C |  | AVD | EC95 | Herpes simplex virus 1 | VERO | cytopathic effect | 3.1 µM |
| Nc1nc(=O)n([C@@H]2O[C@H](CO)[C@@H](O)[C@@H]2F)cc1I |  | KOS HPMPA-resistant | EC50 | Herpes simplex virus 1 | HEL | cytopathic effect | 0.02 µg/mL |
| CCC(=O)O[C@@H]1CC(=O)O[C@H](C)C/C=C/C=C/[C@H](O[C@H]2CC[C@H](N(C)C)[C@H](C)O2)[C@H](C)C[C@H](CC=O)[C@H](O[C@@H]2O[C@H](C)[C@@H](O[C@H]3C[C@@](C)(O)[C@@H](O)[C@H](C)O3)[C@H](N(C)C)[C@H]2O)[C@H]1OC |  | KOS | EC50 | Herpes simplex virus 1 | HeLa | cytopathic effect | >100 µg/mL |
| O=C(CP(=O)(O)O)OC[C@H]1O[C@@H](n2cc(CCCl)c(=O)[nH]c2=O)C[C@@H]1O | 72.7 µM | TK- | inhibition | Herpes simplex virus 2 | VERO | cytopathic effect | >25% |
| O=c1[nH]c(=O)n([C@H]2C[C@H](O)[C@@H](CO)O2)cc1/C=C/Br |  | KOS PMEDAP-resistant | EC50 | Herpes simplex virus 1 | HEL | cytopathic effect | 0.001 µg/mL |
| CCc1cn([C@H]2C[C@H](O)[C@@H](CO)O2)c(=O)[nH]c1=O |  |  | EC50 | Herpes simplex virus |  | cytopathic effect | 2 µg/mL |

An empty or dashed field is not shown. Inhibition is in % at the dose shown (toxicity tests: loss of growth or viability). Conditions beyond the fields shown may differ between rows.